A mixed list of measured activities; the numbers were collected in NIAID ChemDB.

Shared fields: target-level tests; target: CCR5; measure: IC50

Conditions beyond the fields shown may differ between rows. An empty or dashed field is not shown. ICn is the concentration giving n% inhibition.

structure,mutations,read by,value
CCCN(C(=O)OCc1cccc2ccccc12)C1CCN(CCC(CN(C)S(=O)(=O)c2ccccc2)c2ccccc2)CC1,,radioligand binding / binding,0.005 µM
C=CCN(C(=O)OCc1ccc([N+](=O)[O-])cc1)C1CCN(CC[C@](C)(CN(C)S(=O)(=O)c2ccccc2)c2ccccc2)CC1,CCR5-Y251A,radiometric,0.018 µM
CN(CC(CN1CCC(c2ccccc2)CC1)c1ccccc1)S(=O)(=O)c1ccccc1,,radioligand binding / binding,>10 µM
CCN(C(=O)OCC(C)C)C1CCN(CCC(CN(C)S(=O)(=O)c2ccccc2)c2ccccc2)CC1,,radioligand binding / binding,0.02 µM
CCN(C(=O)OCc1ccccc1)C1CCN(CCC(CNC)(CN(C)S(=O)(=O)c2ccccc2)c2ccccc2)CC1,,radioligand binding / binding,>0.1 µM
CN(C[C@@H](CCN1CCC2(CC1)CSc1ccccc12)c1ccc(Cl)cc1)S(=O)(=O)c1ccccc1,,radioligand binding / binding,4 µM
C=C(C)CN(C(=O)OCc1ccccc1)C1CCN(CCC(C)(CN(C)S(=O)(=O)c2ccccc2)c2ccccc2)CC1,,radioligand binding / binding,0.003 µM
CN(CC(C)(CCN1CCC(N(CCO)C(=O)OCc2ccc([N+](=O)[O-])cc2)CC1)c1ccsc1)S(=O)(=O)c1ccccc1,CCR5-Y108A,radiometric,0.75 µM
CN(C[C@@H](CCN1CCC2(CC1)CC(=O)c1ccccc1O2)c1cccc(Cl)c1)S(=O)(=O)c1ccccc1,,radioligand binding / binding,>1 µM
C=CCN(C(=O)OCc1ccccc1)C1CCN(CC[C@](CO)(CN(C)S(=O)(=O)c2ccccc2)c2ccccc2)CC1,,radioligand binding / binding,0.0006 µM
CN(CC(CCN1CCC(c2ccccc2)CC1)C1CCCCC1)S(=O)(=O)c1ccccc1,,radioligand binding / binding,<10 µM
CCOC(=O)OCC(CCN1CCC(N(CC)C(=O)OCc2ccccc2)CC1)(CN(C)S(=O)(=O)c1ccccc1)c1ccccc1,,radioligand binding / binding,0.053 µM
CN(CC(CCN1CCC(c2ccccc2)CC1)c1ccccc1Cl)S(=O)(=O)c1ccccc1,,radioligand binding / binding,3.3 µM
O=C(C1CCCCC1)N1C[C@H](CN2CCC(c3ccccc3)CC2)[C@@H](c2ccccc2)C1,CCR5-W86A,radiometric,>1 µM
CN1C(=O)CC2(CCN(CC[C@H](CN(C)S(=O)(=O)c3ccccc3)c3cccc(Cl)c3)CC2)c2ccccc21,,radioligand binding / binding,0.06 µM
CCN(C(=O)OCc1ccccc1)C1CCN(CCC(COC(C)=O)(CN(C)S(=O)(=O)c2ccccc2)c2ccccc2)CC1,,radioligand binding / binding,0.013 µM
CCCN(C(=O)OCc1ccc2ccccc2c1)C1CCN(CCC(CN(C)S(=O)(=O)c2ccccc2)c2ccccc2)CC1,,radioligand binding / binding,0.005 µM
CN(CC(c1ccccc1)N1CCC(c2ccccc2)CC1)S(=O)(=O)c1ccccc1,,radioligand binding / binding,>10 µM
CN(CC(CCN1CCC(c2ccccc2)CC1)c1cccc(C(=O)O)c1)S(=O)(=O)c1ccccc1,,radioligand binding / binding,<10 µM
CCCOC(=O)N(CC1CCCCC1)C1CCN(CCC(CN(C)S(=O)(=O)c2ccccc2)c2ccccc2)CC1,,radioligand binding / binding,0.1 µM
CN(CC(C)(CCN1CCC(N(C/C=C/Cl)C(=O)OCc2ccccc2)CC1)c1ccccc1)S(=O)(=O)c1ccccc1,,radioligand binding / binding,0.009 µM
CN(C[C@@H](CCNCCCCc1ccccc1)c1cccc(Cl)c1)S(=O)(=O)c1ccccc1,,radioligand binding / binding,>10 µM
CCCN(C(=O)OCc1ccc([N+](=O)[O-])cc1)C1CCN(CC[C@H](CN(C)S(=O)(=O)c2ccccc2)c2ccccc2)CC1,,radioligand binding / binding,0.001 µM
CN(CC(c1ccccc1)N1CCC2(CC1)CS(=O)c1ccccc12)S(=O)(=O)c1ccccc1,,radioligand binding / binding,>10 µM
CN(C[C@@H](CCN1CCCCC1)c1cccc(Cl)c1)S(=O)(=O)c1ccccc1,,radioligand binding / binding,>10 µM

For reference, 3 entries again:

structure | mutations | read by | value
C=CCN(C(=O)OCc1ccc([N+](=O)[O-])cc1)C1CCN(CC[C@](C)(CN(C)S(=O)(=O)c2ccccc2)c2ccccc2)CC1 | CCR5-Y251A | radiometric | 0.018 µM
CCN(C(=O)OCc1ccccc1)C1CCN(CCC(COC(C)=O)(CN(C)S(=O)(=O)c2ccccc2)c2ccccc2)CC1 |  | radioligand binding / binding | 0.013 µM
CN(CC(C)(CCN1CCC(N(C/C=C/Cl)C(=O)OCc2ccccc2)CC1)c1ccccc1)S(=O)(=O)c1ccccc1 |  | radioligand binding / binding | 0.009 µM